In article PMC9603901 (Microbiology Spectrum, 2022):
HELM strings list residues between dots; [ac] is acetyl, [am] amide, other brackets name non-standard units.

Assay: peptide synthesis
Conditions: whole synthesis, 214 nm

PEPTIDE1{F.K.F.L.A.R.T.G.K.F.L.[am]}$$$$V2.0
final HPLC purity: 99.7% purity
